The source of these data is patent US11518759B1, “Protacs based on VHL ligand targeting coronavirus 3CL protease and preparation method and application thereof” (SHAANXI PANLONG PHARMACEUTICAL CO., LTD., priority 2022, dated 2022).

By IC50 is commonly meant the concentration at which inhibition is half-maximal. High values mean a need for much substance, low ones inhibition by little substance.

Structures are written as SMILES.

Assay [1] deals with T1, SARS-CoV-2 3CL^pro (Severe acute respiratory syndrome coronavirus 2 (2019-nCoV) (SARS-CoV-2), UniProt P0DTD1). Format: biochemical. Conditions: FRET, SARS-CoV-2 3CLpro 0.5 μM, substrate 20 μM; class symbols.
Assay [2] deals with T1, SARS-CoV-2 3CL^pro. It counts as cell-based. As to conditions: HEK293E cells transfected with 3CLpro plasmid, 24 h, Western Blot; class symbols. Background: Immunoblotting shows a protein as a band on a membrane.

For `Cc1ncsc1-c1ccc(CNC(=O)[C@@H]2C[C@@H](O)CN2C(=O)[C@@H](NC(=O)CCn2cc(Cn3c(=O)[nH]/c(=N\c4cc5cn(C)nc5cc4Cl)n(Cc4cc(F)c(F)cc4F)c3=O)nn2)C(C)(C)C)cc1` [Compound 1], the IC50 in assay [1] was 100 to 1000 nM. The DC50 in assay [2] lay in the range of 100 to 1000 nM.
For `Cc1ncsc1-c1ccc(CNC(=O)[C@@H]2C[C@@H](O)CN2C(=O)[C@@H](NC(=O)COCCn2cc(Cn3c(=O)[nH]/c(=N\c4cc5cn(C)nc5cc4Cl)n(Cc4cc(F)c(F)cc4F)c3=O)nn2)C(C)(C)C)cc1` [Compound 7], the IC50 in assay [1] is 100 to 1000 nM. In assay [2], this compound yielded a DC50 of 100 to 1000 nM.
